Measurements reported in PubChem BioAssay AID624099 (ICCB-Longwood, 2012).
In all, the deposit lists about 21,000 reagents; this is a random part of them. In the full data, 497 (2.4%) were called active. 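Higher z means weaker E2 silencing; only reporter increases were scored, and knock-downs that hurt cell survival may mask genuine repressor factors.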

Test: 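Knock-downs relieving repression by E2 of an HPV18 LCR luciferase reporter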 (primary screen)
Cell system: human C33A cervical carcinoma cells (HPV-negative) stably expressing BPV1 E2 and an HPV18 LCR luciferase reporter
Reagents: siRNA pool against human genes, 40 nM
Duration: 72 h
Detection: 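HPV18 LCR reporter light per well, converted to plate-wise z-scores that exclude control wells, and averaged over triplicate plates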
Reading the numbers: mean z-score and z-score: higher = stronger reporter signal, weaker E2 silencing
Active means: 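Mean z ≥ 2 together with z ≥ 2 in two or more of the three replicates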

mean z-score,"z-score, replicate A","z-score, replicate B","z-score, replicate C",outcome,gene symbol
1.14,1.04,1.14,1.23,inactive,PAH
1.1,1.03,0.98,1.3,inactive,ACSS2
-0.09,0.18,-0.31,-0.16,inactive,OPRK1
0.51,0.65,0.16,0.73,inactive,TRMU
1.22,1.39,0.95,1.34,inactive,LOC389139 (retired record)
0.05,0.14,0.01,0.01,inactive,TDO2
-0.11,0.09,-0.35,-0.06,inactive,SLC25A3
1.72,1.76,1.55,1.84,inactive,CGNL1
0.26,-0.08,0.13,0.74,inactive,HSPB6
-0.37,-0.24,-0.39,-0.5,inactive,LOC388453 (retired record)
-0.41,-0.25,-0.56,-0.43,inactive,GJA4
-0.71,-0.47,-0.74,-0.91,inactive,ZDHHC7
-0.29,-0.37,-0.42,-0.08,inactive,STK39
-1.38,-1.34,-1.14,-1.67,inactive,ZDHHC24
-0.89,-0.48,-0.62,-1.56,inactive,CBLL1
0.21,-0.04,0.32,0.34,inactive,TMEM165
1.28,2,0.9,0.95,inactive,NIP7
-0.99,-0.7,-1.19,-1.07,inactive,ZNF573
1.17,1.26,1.21,1.04,inactive,ACER1
-0.42,-0.14,-0.75,-0.39,inactive,CABP2
-0.85,-0.98,-0.88,-0.67,inactive,CKMT2
0.38,0.3,0.38,0.46,inactive,TMEM185A
0.65,0.57,0.58,0.81,inactive,LOC402696 (retired record)
-0.9,-1.04,-0.84,-0.83,inactive,SOCS3
0.7,0.73,0.53,0.85,inactive,SNRNP35
0.84,0.68,0.83,1.02,inactive,IFNWP2
0.45,-0.04,0.56,0.82,inactive,SDC2
0.63,0.49,0.53,0.88,inactive,PTGIR
-0.95,-1.02,-0.85,-0.97,inactive,SP6
-1.11,-1.2,-0.98,-1.16,inactive,TECTA
-0.37,-0.1,-0.55,-0.47,inactive,CHCHD1
-2.91,-2.68,-3.03,-3.04,inactive,RPS15P4
-0.65,-0.55,-0.77,-0.61,inactive,ISL1

The list goes on (2 carried over from the part before).
mean z-score,"z-score, replicate A","z-score, replicate B","z-score, replicate C",outcome,gene symbol
-2.91,-2.68,-3.03,-3.04,inactive,RPS15P4
-0.65,-0.55,-0.77,-0.61,inactive,ISL1
-0.04,0.06,0.08,-0.25,inactive,INPP1
0.35,0.52,0.23,0.29,inactive,HNRNPR
1.1,0.84,1.3,1.15,inactive,ERAS
-0.56,-0.47,-0.46,-0.75,inactive,NDUFB2
1.19,1.3,1.24,1.03,inactive,RELA
1.27,1.16,1.12,1.53,inactive,CHCHD2P10
-0.93,-0.79,-1.09,-0.9,inactive,DDHD1
3.48,3.26,3.55,3.64,active,GCSIR
-0.09,-0.24,-0.2,0.15,inactive,ABCA13
0.48,0.7,0.31,0.43,inactive,CABLES2
1.14,1.25,1.11,1.07,inactive,PGBD1
0.35,0.53,0.24,0.29,inactive,ZNRD2
-0.02,0.15,-0.12,-0.1,inactive,BCHE
-1.28,-1.55,-0.92,-1.36,inactive,LINC02880
0.88,0.95,0.62,1.06,inactive,ANXA10
1.39,1.45,1.56,1.17,inactive,MCOLN3
0.79,0.74,0.68,0.95,inactive,ZNF503
-0.28,-0.44,-0.28,-0.12,inactive,CAMSAP2
-0.11,-0.22,-0.02,-0.09,inactive,FGD3
0.37,0.24,0.37,0.49,inactive,IL34
-1.07,-1.02,-1.08,-1.11,inactive,TUBGCP4
-2.55,-2.53,-2.66,-2.47,inactive,HNRNPK
-0.81,-0.82,-0.88,-0.73,inactive,CHMP2B
0.03,0.61,-0.17,-0.34,inactive,LOC389143 (retired record)
-0.06,0,0,-0.18,inactive,COPS4
0.48,0.5,0.48,0.46,inactive,TM9SF3
0.09,0.44,-0.08,-0.08,inactive,PRELID1
0.49,0.3,0.83,0.34,inactive,SGSH
1.25,1.2,1.1,1.45,inactive,ALDOB
-1.68,-1.75,-1.53,-1.75,inactive,RPS2
-0.76,-1.01,-0.69,-0.59,inactive,LGALS1
1.07,0.99,1.14,1.08,inactive,ATXN10
-0.7,-0.55,-0.63,-0.93,inactive,SLC36A2
0.12,-0.32,0.09,0.59,inactive,GSG1L
-0.67,-0.44,-0.93,-0.63,inactive,DVL3
0.68,0.48,0.76,0.79,inactive,FOXD3
0.36,1.01,0.05,0.03,inactive,ZNF804A
-0.88,-1.09,-0.64,-0.91,inactive,LOXL1
0.4,0.52,0.44,0.25,inactive,LOC400749 (retired record)
-0.86,-0.98,-1.01,-0.58,inactive,RRP1B
